Measured values from several laboratories, pooled; numbers as filed in NIAID ChemDB.

Common to all: growth or infection tests; species: Aspergillus fumigatus

Conditions beyond the fields shown may differ between rows.

SMILES	read by	endpoint	strain	result
CCC(C)n1ncn(-c2ccc(N3CCN(c4ccc(OC[C@H]5CO[C@](Cn6cncn6)(c6ccc(Cl)cc6Cl)O5)cc4)CC3)cc2)c1=O	broth dilution	MIC80		>64 µg/mL
CC[C@@H]([C@H](C)O)n1ncn(-c2ccc(N3CCN(c4ccc(OC[C@@H]5CO[C@@](Cn6cncn6)(c6ccc(F)cc6F)C5)cc4)CC3)cc2)c1=O		MIC50		16 µg/mL
CCOC(=O)C1=C(N)N(c2nc(-c3ccc(Cl)cc3)cs2)C2=C(C(=O)CCC2)C1c1cc2cc(C)ccc2nc1F	broth dilution	MIC	MTCC 3008	500 µg/mL
C[C@H]1[C@H](O)[C@@H](C)/C=C/C=C/C=C/C=C/C=C/C=C/C=C/[C@H](O[C@@H]2O[C@H](C)[C@@H](O)[C@H](N)[C@@H]2O)C[C@@H]2O[C@](O)(C[C@@H](O)C[C@@H](O)CC[C@H](O)[C@@H](O)C[C@@H](O)CC(=O)O[C@H]1C)C[C@H](O)[C@H]2C(=O)O	broth dilution	MIC	ITCC 4517	1.95 µg/mL
CCOC(=O)C1=C(N)N(c2nc(-c3ccccc3O)cs2)C2=C(C(=O)CCC2)C1c1cc2cc(Cl)ccc2nc1F	broth dilution	MIC	MTCC 3008	500 µg/mL
Cc1ccc2nc(Sc3ccc(Cl)cc3)c(C3C(C#N)=C(N)Oc4c3c(=O)oc3ccccc43)cc2c1	broth dilution	MIC	MTCC 3008	>1000 µg/mL
COc1cccc(CSC#N)c1	broth dilution	MIC		300 µg/mL
CNCCC(Oc1ccc(C(F)(F)F)cc1)c1ccccc1		MFC	10 clinical isolates	78–1250 µg/mL
Cc1ccc(C(=O)/C=C/c2ccc(C(=O)N3C/C(=C/c4ccccc4)C(=O)/C(=C\c4ccccc4)C3)cc2)cc1C		MIC	3 clinical isolates	>32 µg/mL
Oc1cc(Cc2cc(O)c(O)c(Br)c2Br)c(Br)c(Br)c1O		EC50	HIC 6094	12.5 µg/mL
Cc1ccc2nc(Oc3ccc(Cl)cc3)c(C3C(C#N)=C(N)Oc4c3c(=O)oc3ccc(C)cc43)cc2c1		MIC	MTCC 3008	500 µg/mL
C[C@@H](c1nc(-c2ccc(C#N)cc2)cs1)[C@](O)(Cn1cncn1)c1cc(F)ccc1F		MIC50		0.25–1 µg/mL
CCOP(=O)(OCC)C(F)(F)[C@@H]1[C@@H](O)[C@H](O)[C@H](CO)N1CCNC1[C@@H](CO)O[C@H](OC)[C@H](NC(C)=O)[C@H]1O		MIC		>128 µg/mL
CC(=O)Oc1ccc2ccc(=O)oc2c1		MIC	ATCC 16913	500 µg/mL
Cc1ccc2nc(Sc3ccccc3)c(C3C(C#N)=C(N)Oc4c3c(=O)oc3ccccc43)cc2c1	broth dilution	MIC	MTCC 3008	100 µg/mL
C[C@@H]1[C@H](O)[C@@H](C)/C=C/C=C/CC/C=C/C=C/C=C/C=C/C(O[C@H]2O[C@H](C)[C@@H](O)[C@H](N)[C@@H]2O)CC2O[C@](O)(CC(O)C(O)CCC(O)CC(O)CC(O)CC(=O)O[C@H]1C)CC(O)C2C(=O)O	turbidity / visual reading	MIC	MTCC 3008	100 µg/mL
O=c1ccc2ccc(Cl)cc2o1		MIC	ATCC 16913	1000 µg/mL
CNCC(=O)Nc1ccc(-c2ccc(OCC(O)(Cn3cncn3)c3ccc(F)cc3F)cc2)cn1	broth dilution	MIC80		>64 µg/mL
O=c1ccc2cc(Cl)ccc2o1		MIC	ATCC 16913	1000 µg/mL
COc1cccc(CN=C=S)c1	broth dilution	MIC		30 µg/mL
CCCCCCCCCCCCNC1CCc2ccc(OC)cc2C1		MIC		>64 µM
C[C@@H](c1ncncc1F)[C@](O)(Cn1cncn1)c1ccc(F)cc1F		MIC	NFI 4001	2 µg/mL
COc1ccc(CSC#N)cc1	broth dilution	MIC		150 µg/mL
O=S(=O)(O)CCNCl		MIC90	ATCC 16424	37.8 µM
N#CSCc1ccccc1	broth dilution	MIC		150 µg/mL
C[C@H]1[C@H](O)[C@@H](C)/C=C/C=C/C=C/C=C/C=C/C=C/C=C/[C@H](O[C@@H]2O[C@H](C)[C@@H](O)[C@H](N)[C@@H]2O)C[C@@H]2O[C@](O)(C[C@@H](O)C[C@@H](O)CC[C@H](O)[C@@H](O)C[C@@H](O)CC(=O)O[C@H]1C)C[C@H](O)[C@H]2C(=O)O		MIC90	156 isolates	1 µg/mL
Cc1ccc2nc(Oc3ccccc3)c(C3C(C#N)=C(N)Oc4c3c(=O)oc3ccccc43)cc2c1		MIC	MTCC 3008	1000 µg/mL
C[C@@H](c1ncncc1F)[C@](O)(Cn1cncn1)c1ccc(F)cc1F		MIC		0.125–16 µg/mL
CCCCCOc1ccc(-c2cc(-c3ccc(C(=O)N[C@H]4C[C@@H](O)[C@@H](O)NC(=O)[C@@H]5[C@@H](O)[C@@H](C)CN5C(=O)[C@H]([C@H](O)CC(N)=O)NC(=O)[C@H]([C@H](O)[C@@H](O)c5ccc(O)c(OS(=O)(=O)O)c5)NC(=O)[C@@H]5C[C@@H](O)CN5C(=O)[C@H]([C@@H](C)O)NC4=O)cc3)no2)cc1	XTT	MIC	ATCC 204305	>128 µg/mL
COc1ccc(C(=O)/C=C/c2ccc(C(=O)O)cc2)cc1OC		MIC	3 clinical isolates	>32 µg/mL
N#CC1=C(N)N(c2nc(-c3ccc(Cl)cc3)cs2)C2=C(C(=O)CCC2)C1c1cc2cc(Cl)ccc2nc1F	broth dilution	MIC	MTCC 3008	>1000 µg/mL
C(=C\c1ccccc1)/CN(Cc1cccc2ccccc12)n1cncn1		MIC		>200 µM
CCCCCOc1ccc(-c2ccc(-c3ccc(C(=O)N[C@H]4C[C@@H](O)[C@@H](O)NC(=O)[C@@H]5[C@@H](O)[C@@H](C)CN5C(=O)[C@H]([C@H](C)O)NC(=O)[C@H]([C@H](O)[C@@H](O)c5ccc(O)cc5)NC(=O)[C@@H]5C[C@@H](O)CN5C(=O)[C@H]([C@H](C)O)NC4=O)cc3)cc2)cc1		MIC		0.015 µg/mL
CCCCCCCCCCNC1CCc2ccc(OC)cc2C1		MIC		>64 µM
O=C1/C(=C/c2ccccc2)CN(C(=O)c2ccc(/C=C/C(=O)c3ccc([N+](=O)[O-])cc3)cc2)C/C1=C\c1ccccc1		MIC	3 clinical isolates	>32 µg/mL
CCC(C)CC(C)CCCCCCCCC(=O)N[C@H]1C[C@@H](O)[C@H](NCCN)NC(=O)[C@@H]2[C@@H](O)CCN2C(=O)[C@H]([C@H](O)CCN)NC(=O)[C@H]([C@H](O)[C@@H](O)c2ccc(O)cc2)NC(=O)[C@@H]2C[C@@H](O)CN2C(=O)[C@H]([C@@H](C)O)NC1=O		MIC		0.015–4 µg/mL
CN[C@@H]1[C@H](O)[C@@H](O)[C@H](O[C@H]2c3cc(C)c(C(=O)N[C@H](C)C(=O)O)c(O)c3-c3c(cc4c(c3O)C(=O)c3cc(OC)cc(O)c3C4=O)[C@@H]2O)O[C@@H]1C		MIC	IAM2034	3.1 µg/mL
COc1cccc(C=O)c1OC	agar	MIC	AF293	2500 µM
O=c1ccc2cc([N+](=O)[O-])ccc2o1		MIC	ATCC 16913	500 µg/mL
Cc1ccc2occ(C(c3c(O)c4ccccc4oc3=O)c3c(O)c4ccccc4oc3=O)c(=O)c2c1	agar diffusion / agar	MFC		100 µg/mL
N#CC1=C(N)N(c2nc(-c3ccc(O)cc3)cs2)C2=C(C(=O)CCC2)C1c1cc2cc(Cl)ccc2nc1F	broth dilution	MIC	MTCC 3008	1000 µg/mL
O=c1oc2ccccc2c(O)c1C(c1c(O)c2ccccc2oc1=O)c1coc2ccccc2c1=O	agar diffusion / agar	MFC		50 µg/mL
COc1cccc(C=O)c1O	agar	MIC	AF293	500 µM
C=CCSSCC=C		MIC80	28 isolates	12 µg/mL
C(#Cc1ccccc1)CN1CCN(Cc2ccccc2)CC1		MIC	ITCC 4517	500 µg/mL
COc1cc(O)c2c(c1)C(=O)c1c(cc3c(c1O)-c1c(cc(C)c(C(=O)N[C@H](C)C(=O)O)c1O)[C@H](O[C@@H]1O[C@H](C)[C@H](N)[C@H](O[C@@H]4OC[C@@H](O)[C@H](O)[C@@H]4O)[C@H]1O)[C@H]3O)C2=O		MIC	IAM2034	1.6 µg/mL
CCOC(=O)C1=C(N)N(c2nc(-c3ccccc3O)cs2)C2=C(C(=O)CCC2)C1c1cc2ccccc2nc1F	broth dilution	MIC	MTCC 3008	500 µg/mL
C[C@@H](n1ncc2cc(F)ccc21)[C@](O)(Cn1cncn1)c1ccc(F)cc1F		MIC90	ATCC MYA-1163	0.5 µg/mL
COc1cnc2c3c(nccc13)C1SC=CC1C2=O		MIC80		>64 µg/mL
Cc1ccc(C(=O)/C=C/c2ccc(C(=O)N3C/C(=C\c4ccccc4)C(=O)/C(=C/c4ccccc4)C3)cc2)cc1		MIC	3 clinical isolates	>32 µg/mL
CCN1CCN(c2ccccc2)CC1		MIC	ITCC 4517	125 µg/mL
O=C(/C=C/c1ccc(F)cc1)Nc1ccc(-n2cnn(CC(O)(Cn3cncn3)c3ccc(F)cc3F)c2=O)cc1	broth dilution	MIC80		>40 µg/mL
COc1ccc2ccc(=O)oc2c1		MIC	ATCC 16913	1000 µg/mL
c1ccc([C@H]2CN3CCSC3=N2)cc1	broth dilution	MIC		>120 µM
CN(C/C=C/C#CC(C)(C)C)Cc1cccc2ccccc12		MIC	14 isolates	0.03–1 µg/mL
Cc1ccc2oc(=O)c3c(c2c1)OC(N)=C(C#N)C3c1cc2ccccc2nc1Sc1ccc(Cl)cc1	broth dilution	MIC	MTCC 3008	>1000 µg/mL
O=c1ccc2ccc([N+](=O)[O-])cc2o1		MIC	ATCC 16913	250 µg/mL
CCCCCCCCCCNC1CCc2cccc(O)c2C1		MIC		32 µM
CCOC(=O)C1=C(N)N(c2nc(-c3ccc(Cl)cc3)cs2)C2=C(C(=O)CCC2)C1c1cc2cc(Cl)ccc2nc1F	broth dilution	MIC	MTCC 3008	1000 µg/mL
COc1ccc(C(=O)/C=C/c2ccc(C(=O)N3C/C(=C/c4ccccc4)C(=O)/C(=C\c4ccccc4)C3)cc2)cc1OC		MIC	3 clinical isolates	>32 µg/mL
COc1ccc2nc(Oc3ccc(Cl)cc3)c(C3C(C#N)=C(N)Oc4c3c(=O)oc3ccc(C)cc43)cc2c1		MIC	MTCC 3008	500 µg/mL
CN(C/C=C/C#CC(C)(C)C)Cc1cccc2ccccc12	broth dilution / agar	MIC100		200 µg/mL
Cc1ccc(Oc2nc3ccc(C)cc3cc2C2C(C#N)=C(N)Oc3c2c(=O)oc2ccc(C)cc32)cc1		MIC	MTCC 3008	500 µg/mL
C(=C\c1ccccc1)/CN(Cc1cccc2ccccc12)n1cnnc1		MIC		>200 µM
CCCCCCCCCNC1CCc2ccc(OC)cc2C1		MIC		64 µM
C=C1/C=C(\C)[C@H](CC)OC(=O)[C@H](C)C(=O)C(O)(CO)C/C(OC)=C/[C@@H](C)C1		MIC	IAM2034	>20 µg/mL
C=CCSSSSCC=C		MIC80	28 isolates	4 µg/mL
O=C/C=C/c1ccccc1	broth dilution	MIC	MTCC 2550	80 µg/mL

The last 5 rows once more:

SMILES	read by	endpoint	strain	result
C(=C\c1ccccc1)/CN(Cc1cccc2ccccc12)n1cnnc1		MIC		>200 µM
CCCCCCCCCNC1CCc2ccc(OC)cc2C1		MIC		64 µM
C=C1/C=C(\C)[C@H](CC)OC(=O)[C@H](C)C(=O)C(O)(CO)C/C(OC)=C/[C@@H](C)C1		MIC	IAM2034	>20 µg/mL
C=CCSSSSCC=C		MIC80	28 isolates	4 µg/mL
O=C/C=C/c1ccccc1	broth dilution	MIC	MTCC 2550	80 µg/mL

ECn is the concentration giving n% inhibition of infection, replication or growth. MIC50, MIC90 and the like: level of inhibition, or share of isolates inhibited. An empty or dashed field is not shown. a–b is a range or a potency band.